{"source": "ChEMBL document CHEMBL2390950", "about": "“Dieckol, a SARS-CoV 3CL(pro) inhibitor, isolated from the edible brown algae Ecklonia cava” (Bioorg Med Chem, 2013)", "biological_target": "Replicase polyprotein 1ab (Severe acute respiratory syndrome-related coronavirus, UniProt P0C6X7)"}
{"smiles": "O=C1c2cccc(O)c2C(=O)c2c(O)cc(CO)cc21", "note": "[ALOE-EMODIN]", "values": [{"measurement": "IC50", "result": 132, "unit": "µM"}]}
